Measured values from several laboratories, pooled; numbers as filed in NIAID ChemDB.

Shared fields: cytotoxicity tests; cells: MT-4; read by: MTT; read-out: CC50

Lines come from different laboratories, so protocols vary.

structure,setting,value
CSCCC(OC(=O)[C@@H](N)c1ccccc1-c1c[nH]c2ccccc12)C(C)(C)C,,35 µM
Cc1c(C(C)c2ccc(F)cc2)n(COCc2ccccc2)c(=O)[nH]c1=O,,>339.3 µM
CC(C)C(N)C(=O)O[C@@H](C[C@@H](Cc1ccccc1)C(=O)N[C@H]1c2ccccc2C[C@H]1O)CN1CCN(Cc2cccnc2)C[C@H]1C(=O)NC(C)(C)C,,>100 µM
Brc1ccc(-c2nc(-c3nnc(C45CCC6CC(CC4C6)C5)o3)cs2)cc1,,≥110 µM
Cc1ccnc2c1NC(=O)c1cccnc1N2C1CC1,,>100 µM
Cc1ccc(C(C)S(=O)(=O)c2c(C)ccc[n+]2[O-])c(C)c1,,60 µg/mL
CSc1nc2ccccc2c(=O)n1/N=C1\C(=O)N(CN(C)C)c2ccc(Br)cc21,,16.3 µM
CC(=O)N[C@@H](Cc1ccc(O)cc1)C(=O)N[C@H]1CSSC[C@@H](C(=O)O)NC(=O)[C@H](CCCCN)NC(=O)[C@H](CCCCN)NC1=O,2 d,>2.5 µM
Cc1c(C(C)(O)c2ccc(Cl)cc2)n(COCc2ccccc2)c(=O)[nH]c1=O,,89.07 µM
Cc1cccc(Nc2nn3c(=O)c4ccccc4nc3s2)c1,,>40.65 µg/mL
CC(=O)N[C@H]1CSSC[C@@H](C(=O)N[C@@H](CCC(N)=O)C(=O)O)NC(=O)[C@H](Cc2cnc[nH]2)NC(=O)[C@H](Cc2ccc(O)cc2)NC1=O,2 d,>2.5 µM
Cc1cc(C)c(-n2c(SCC(=O)Nc3ccccc3Br)nc3cnccc32)c(C)c1,,22 µM
CSc1nc2ccccc2c(=O)n1/N=C1\C(=O)N(CN2CCCCC2)c2ccc(Br)cc21,,10.2 µM
Cc1cc(C)cc(S(=O)(=O)c2c(C(=O)N[C@@H]3CCN(Cc4ccccc4F)C3)[nH]c3ccc(Cl)cc23)c1,,>232 µM
CSc1nc2ccccc2c(=O)n1/N=C1\C(=O)N(CN2CCOCC2)c2ccc(Cl)cc21,,13.9 µM
Cc1cn([C@H]2C[C@H](N=[N+]=[N-])[C@@H](CO)O2)c(=O)[nH]c1=O,,>100 µM
CC[C@H](CC[C@](C)(O)[C@H]1CC[C@H]2[C@@H]3[C@H](O)C=C4C[C@@H](O)CC[C@]4(C)[C@H]3CC[C@@]21C)C(C)C,,25.8 µM
CSc1nc2ccccc2c(=O)n1/N=C1\C(=O)Nc2ccccc21,,56.7 µM
O=C(NC(=S)NCCc1ccccc1Cl)c1csc(-c2ccccc2)n1,,32.22 µM
CC(C)(C)NC(=O)[C@@H]1CN(Cc2cccnc2)CCN1C[C@@H](O)C[C@@H](Cc1ccccc1)C(=O)N[C@H]1c2ccccc2C[C@H]1OC(=O)CCCCOc1ccc(C[C@H](NC(=O)OC(C)(C)C)C(=O)O)cc1,,>100 µM
CN1CC(=O)C(=O)C=C1Cn1cnc([N+](=O)[O-])c1Nc1ccc(C#N)cc1,,>250 µM
Cc1cc(C)cc(S(=O)(=O)c2c(C(=O)NS(=O)(=O)C3CC3)[nH]c3ccc(Cl)cc23)c1,,146 µM
Cc1cc(C)c(-n2c(SCC(=O)Nc3ccc(C)cc3[N+](=O)[O-])nc3cnccc32)c(C)c1,,6.2 µM
CCC(c1ccc(F)cc1)c1c(C)c(=O)[nH]c(=O)n1COCc1ccccc1,,73.82 µM
CSCC[C@H](OC(=O)[C@@H](N)c1ccccc1-c1c[nH]c2ccccc12)c1ccccc1,,23 µM
CSc1nc2ccccc2c(=O)n1/N=C1\C(=O)N(CN2CCCCC2)c2ccccc21,,9.1 µM
CSCC[C@H](C(=O)N1CCNC[C@H]1c1c[nH]c2ccccc12)N1CCCN(C(C)C)CC1,,>50 µM
COc1ccc(C)cc1CS(=O)(=O)c1cccc[n+]1[O-],,≥100 µg/mL
CCCS(=O)(=O)NC(=O)c1[nH]c2ccc(Cl)cc2c1S(=O)(=O)c1cc(C)cc(C)c1,,141 µM
Cc1c(Cc2c(F)cccc2F)nc(NN2CCC(C)CC2)[nH]c1=O,,>75 µM
CCC(CCSC)OC(=O)[C@@H](N)c1ccccc1-c1c[nH]c2ccccc12,,34 µM
CC(=O)c1ccc(NC(=O)CSc2nc3cccnc3n2-c2c(C)cc(C)cc2C)c(Br)c1,,46 µM
CSCC[C@H](C(=O)N1CCNC[C@@H]1c1c[nH]c2ccccc12)N1CCCN(C(C)C)CC1,,>50 µM
Cc1c(C(C)(O)c2cccc(F)c2)n(COCc2ccccc2)c(=O)[nH]c1=O,,186 µM
C=CCNc1nn2c(=O)c3ccccc3nc2s1,,>66.8 µg/mL
O=C(O)CCN(CCN(CC(=O)O)Cc1cnc2c(O)cccc2c1)CC(=O)O,,>50 µM
CC(C)(C)NC(=O)[C@@H]1CN(Cc2cccnc2)CCN1C[C@H](C[C@@H](Cc1ccccc1)C(=O)N[C@H]1c2ccccc2C[C@H]1OC(=O)CCCCOc1ccc(C[C@H](NC(=O)OC(C)(C)C)C(=O)O)cc1)OC(=O)CCCCOc1ccc(C[C@H](NC(=O)OC(C)(C)C)C(=O)O)cc1,,>100 µM
Cc1cc(C)cc(S(=O)(=O)c2c(C(=O)N[C@H]3CCN(S(C)(=O)=O)C3)[nH]c3ccc(Cl)cc23)c1,,29.92 µM
Brc1cccc(-c2nc(-c3nnc(C45CCC6CC(CC4C6)C5)o3)cs2)c1,,>125 µM
Cc1cc(C)cc(S(=O)(=O)c2c(C(=O)NC3CNC3)[nH]c3ccc(Cl)cc23)c1,,37.31 µM
C=C(c1ccccc1)c1c(C)c(=O)[nH]c(=O)n1COCc1ccccc1,,133 µM
CN1CC(=O)C(=O)C=C1Cn1cnc([N+](=O)[O-])c1Sc1ccccc1,,23.6 µM
Cc1cc(C)cc(S(=O)(=O)c2c(C(=O)N[C@@H]3CCN(CC(N)=O)C3)[nH]c3ccc(Cl)cc23)c1,,31.02 µM
Cc1cccc(C(C)c2c(C)c(=O)[nH]c(=O)n2COCc2ccccc2)c1,,>343 µM
Cc1ccnc2c1NC(=O)c1cccnc1N2C1CC1,,>25 µM
COc1ccc(C(C)c2c(C(C)C)c(=O)[nH]c(=O)n2COCc2ccccc2)cc1,,33.28 µM
Cc1cccc(-c2nc(-c3nnc(C45CCC6CC(CC4C6)C5)o3)cs2)c1,,>125 µM
Cc1cn([C@H]2C[C@H](N=[N+]=[N-])[C@@H](CO)O2)c(=O)[nH]c1=O,,>7.49 µM
CCCCCCCC/C=C\CCCCCCCC(=O)O[C@H](CN1C[C@H]2CCCC[C@H]2C[C@H]1C(=O)NC(C)(C)C)[C@H](Cc1ccccc1)NC(=O)[C@H](CC(N)=O)NC(=O)c1ccc2ccccc2n1,,>100 µM
Cc1cc(C)c(-n2c(SCC(=O)Nc3ccc([N+](=O)[O-])cc3Cl)nc3cccnc32)c(C)c1,,25 µM
CN1CC(=O)C(=O)C=C1Cn1cnc([N+](=O)[O-])c1Nc1ccc(Br)cc1,,6.8 µM
O=[N+]([O-])c1ccc[n+]([O-])c1SCc1ccccc1,,28 µg/mL
CCCCCCCC/C=C\CCCCCCCC(=O)OCC(COC(=O)CCCCCCC/C=C\CCCCCCCC)OC(=O)CCC(=O)O[C@@H]1Cc2ccccc2[C@@H]1NC(=O)[C@H](Cc1ccccc1)C[C@H](O)CN1CCN(Cc2cccnc2)C[C@H]1C(=O)NC(C)(C)C,,>100 µM
Cc1cn([C@H]2C[C@H](N=[N+]=[N-])[C@@H](CO)O2)c(=O)[nH]c1=O,,167 µg/mL
Cc1cc(C)cc(S(=O)(=O)c2c(C(=O)NS(=O)(=O)C(F)(F)F)[nH]c3ccc(Cl)cc23)c1,,253 µM
CSCCC(OC(=O)[C@@H](N)c1ccccc1-c1c[nH]c2ccccc12)C(C)C,,30 µM
Cc1ccc(Nc2c([N+](=O)[O-])ncn2CC2=CC(=O)C(=O)CN2C)cc1,,25.4 µM
CSc1nc2ccccc2c(=O)n1/N=C1\C(=O)N(CN2CCCCC2)c2ccc(Cl)cc21,,10.4 µM
C=C(c1cccc2ccccc12)c1c(C)c(=O)[nH]c(=O)n1COCc1ccccc1,,30.97 µM

For reference, 5 entries again:

CSc1nc2ccccc2c(=O)n1/N=C1\C(=O)Nc2ccccc21 ; value: 56.7 µM
CC(=O)N[C@@H](Cc1ccc(O)cc1)C(=O)N[C@H]1CSSC[C@@H](C(=O)O)NC(=O)[C@H](CCCCN)NC(=O)[C@H](CCCCN)NC1=O ; setting: 2 d ; value: >2.5 µM
CCC(CCSC)OC(=O)[C@@H](N)c1ccccc1-c1c[nH]c2ccccc12 ; value: 34 µM
Cc1cc(C)cc(S(=O)(=O)c2c(C(=O)NS(=O)(=O)C(F)(F)F)[nH]c3ccc(Cl)cc23)c1 ; value: 253 µM
CSc1nc2ccccc2c(=O)n1/N=C1\C(=O)N(CN2CCCCC2)c2ccc(Br)cc21 ; value: 10.2 µM

Blank or dashed fields: not listed here. CCn is the concentration with n% toxicity to the cells.